Which two values form the index is not stated here.
Legend:
[1] = tested on: P. falciparum chloroquine sensitive (D6, Sierra Leone) strain; assay: In vitro antimalarial assay (SYBR green), D6 strain; type: cell-based, Plasmodium falciparum; conditions: Selectivity index
[2] = tested on: P. falciparum chloroquine resistant (W2, IndoChina) strain; assay: In vitro antimalarial assay (SYBR green), W2 strain; type: cell-based, Plasmodium falciparum; conditions: Selectivity index

With CC1=CC(=O)c2ccccc2C1=O [MD, menadione] the “SI D6” value [1] was 3.8 and the “SI W2” value [2] was 2.5.
